Test results reported in patent US11771738B2 (Zoetis Services LLC, priority 2018, dated 2023).

Test system: D. immitis L4 larvae
Assay: Dirofilaria immitis, L4 Stage (DiL4) In Vitro Assay
Assay type: cell-based
Details: ratio of DiMf MED to DiL4 MED

“(3S,6R,9S,12R,15S,18R,21S,24R)-6-benzyl-18-(4-(hydroxy(6-methoxypyridin-3-yl)methyl)benzyl)-3,9,15,21-tetraisobutyl-4,10,12,16,22,24-hexamethyl-1,7,13,19-tetraoxa-4,10,16,22-tetraazacyclotetracosan-2,5,8,11,14,17,20,23-octaone” showed a selectivity against D. immitis L4 (DiMf/DiL4) of 20 ×.
